Anti-infective test results gathered from many reports (values: NIAID ChemDB through PubChem).

Shared fields: target-level tests; species: Hepatitis C virus; protein: Nonstructural protein 5B; endpoint: inhibition

Percent inhibition refers to the dose given; in toxicity tests it is the harm to the cells.

CSc1nc(Nc2ccc(N3CCOCC3)cc2)cc(N2CCN(CC(=O)N3CCSC3)CC2)n1 ; dose: 1 µg/mL ; value: 64%
O=C(Nc1ccc2[nH]ncc2c1)c1cc(NCCCn2ccnc2)c(F)cc1F ; dose: 10 µg/mL ; value: 68%
COc1nc(NCCc2ccccn2)nc(Nc2ccc3cn[nH]c3c2)n1 ; dose: 0.1 µg/mL ; value: 0%
CSc1nc(Nc2ccc(N3CCOCC3)cc2)cc(N2CCN(CC(=O)N3CCN(c4ccc(O)cc4)CC3)CC2)n1 ; dose: 1 µg/mL ; value: 73%
CN(C)C(=O)c1ccc(S(=O)(=O)Nc2ccc(N3CCOCC3)cc2)cc1 ; dose: 10 µg/mL ; value: 92%
O=C(Nc1ccc2cn[nH]c2c1)c1cc(NCCCn2ccnc2)c(F)cc1F ; dose: 0.1 µg/mL ; value: 30%
CSc1nc(Nc2ccc(N3CCOCC3)cc2)cc(N2CCN(CC(=O)N(CCN(C)C)Cc3ccccc3)CC2)n1 ; dose: 1 µg/mL ; value: 77%
CN(C)CCN(Cc1ccccc1)C(=O)c1ccc(S(=O)(=O)Nc2ccc(N3CCOCC3)cc2)cc1 ; dose: 0.01 µg/mL ; value: 16%
CNC(=O)CN1CCN(c2cc(Nc3ccc(N4CCOCC4)cc3)nc(SC)n2)CC1 ; dose: 1 µg/mL ; value: 63%
CNC(=O)CN1CCN(c2nc(Nc3ccc4[nH]ncc4c3)nc(OC)n2)CC1 ; dose: 10 µg/mL ; value: 47%
O=C(Nc1ccc2cn[nH]c2c1)c1cc(NCCc2ccccn2)c(F)cc1F ; dose: 0.1 µg/mL ; value: 14%
COc1nc(Nc2ccc3cn[nH]c3c2)nc(N2CCC(O)CC2)n1 ; dose: 1 µg/mL ; value: 32%
CN(C)CCNc1cc(C(=O)Nc2ccc3cn[nH]c3c2)c(F)cc1F ; dose: 10 µg/mL ; value: 39%
COc1nc(NCCO)nc(Nc2ccc3[nH]ncc3c2)n1 ; dose: 10 µg/mL ; value: 52%
CCNC(=O)CN1CCN(c2cc(Nc3ccc(N4CCOCC4)cc3)nc(SC)n2)CC1 ; dose: 1 µg/mL ; value: 61%
O=C(NCc1ccccn1)c1ccc(S(=O)(=O)Nc2ccc(N3CCOCC3)cc2)cc1 ; dose: 0.01 µg/mL ; value: 50%
CSc1nc(Nc2ccc(N3CCOCC3)cc2)cc(N2CCN(CC(=O)N(C)CCO)CC2)n1 ; dose: 1 µg/mL ; value: 67%
O=C(NCCc1cccnc1)c1ccc(S(=O)(=O)Nc2ccc(N3CCOCC3)cc2)cc1 ; dose: 10 µg/mL ; value: 92%
O=C(Nc1ccc2cn[nH]c2c1)c1cc(NCCO)c(F)cc1F ; dose: 1 µg/mL ; value: 42%

For reference, 3 entries again:

{"smiles": "CCNC(=O)CN1CCN(c2cc(Nc3ccc(N4CCOCC4)cc3)nc(SC)n2)CC1", "dose": "1 µg/mL", "value": "61%"}
{"smiles": "O=C(Nc1ccc2cn[nH]c2c1)c1cc(NCCc2ccccn2)c(F)cc1F", "dose": "0.1 µg/mL", "value": "14%"}
{"smiles": "O=C(Nc1ccc2cn[nH]c2c1)c1cc(NCCCn2ccnc2)c(F)cc1F", "dose": "0.1 µg/mL", "value": "30%"}

Lines come from different laboratories, so protocols vary.